The entries are a selection whose mix differs from that of the whole data set. Some salts and complexes are drawn in separate pieces, as the source files them; their charges need not balance. The source made the active and inactive calls. No stated cut-off is given here; in the data, active means inhibition above about 12%; inactive means the rest.

The term inhibition denotes the change of the read-out against control, counted positive when it falls.

The nature of the assay: reduced growth of AddAB-expressing E. coli cells – absorbance, AddAB inhibitor project, primary screen (AID 435030).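 Further: 0% = vehicle wells of infected cells.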 The conditions noted are these: E. coli expressing H. pylori AddAB, at 11.9 µM, stronger effect = higher value.
Take `CCOC(=O)c1ccc(NP(C)(=O)Oc2ccc(F)cc2)cc1` (stereo not drawn): the inhibition was inactive: 0.17%.
Turning to `COc1ccc(OP(C)(=O)Nc2ccc(SC(F)(F)F)cc2)cc1` (stereo not drawn), the inhibition is inactive: 0.41%.
The same measure for `CP(=O)(Nc1ccccc1)Oc1ccc(F)cc1` (stereo not drawn): inactive: 3.57%.
The same measure for `O=[N+]([O-])c1cc([N+](=O)[O-])c(OC2CCCCC2O)c([N+](=O)[O-])c1` (stereo not drawn): inactive: 0%; for `CCCCCOc1ccc(NP(C)(=O)Oc2ccc(Cl)cc2Cl)cc1` (stereo not drawn): inactive: 1.9%.
With `CCN(CC)CCCOC(=O)C(O)(c1ccccc1)C1CCCCC1` (stereo not drawn) the figure was inactive: -0.66%; with `CP(=O)(Nc1ccccc1F)Oc1ccccc1` (stereo not drawn), inactive: 0.94%.
On to `CC(C)c1ccc(OP(C)(=O)Nc2ccc(SC(F)(F)F)cc2)cc1` (stereo not drawn), for which the inhibition was inactive: 4.7%.
The same measure for `COc1ccc2c(c1O)-c1c(O)c(OC)cc3c1[C@H](C2)[N+](C)(C)CC3.O=[N+]([O-])c1cc([N+](=O)[O-])c([O-])c([N+](=O)[O-])c1[O-]`: inactive: 1.41%; for `O=C(OC1CN2CCC1CC2)c1ccc([N+](=O)[O-])cc1` (stereo not drawn): inactive: 4.64%; for `O=C(OCCN1CCN(CCOCc2ccccc2)CC1)C(O)(c1ccccc1)c1ccccc1`: inactive: 3.9%.
The same measure for `CCOP(C)(=S)SCC(=O)NC(C)(CC)C(=O)O` (stereo not drawn): inactive: 1.15%; for `CP(=O)(Nc1ccc(SC(F)(F)F)cc1)Oc1ccc(F)cc1` (stereo not drawn): inactive: 1.26%.
The same measure for `Cc1ccccc1NP(C)(=O)Nc1ccccc1C`: inactive: 4.8%; for `CP(=O)(Nc1ccc2c(c1)OCCO2)Oc1ccccc1` (stereo not drawn): inactive: -0.48%; for `CN(C)CCOC(=O)C(O)(c1ccccc1)C1CCCCC1` (stereo not drawn): inactive: -3.52%.
Regarding `COc1ccc(NP(C)(=O)Oc2ccccc2OC)cc1` (stereo not drawn), the inhibition is inactive: 2.22%.
With `COc1ccc(OP(C)(=O)Nc2cccc(Br)c2)cc1` (stereo not drawn) the figure was inactive: -0.41%; with `O=[N+]([O-])c1cc([N+](=O)[O-])c(NCC2CCS(=O)(=O)C2)c([N+](=O)[O-])c1` (stereo not drawn), inactive: 0.17%; with `CCOC(=O)c1ccc(NP(C)(=O)Oc2ccc(Cl)cc2)cc1` (stereo not drawn), inactive: 3.07%.
The same measure for `CP(=O)(OC12CC3CC(CC(C3)C1)C2)OC12CC3CC(CC(C3)C1)C2`: inactive: 1.66%; for `Nc1ccc2c(ccc3cccnc32)n1.O=[N+]([O-])c1cc([N+](=O)[O-])c(O)c([N+](=O)[O-])c1`: inactive: 2.98%.
The same measure for `COc1ccccc1OP(C)(=O)Nc1c(C)n(C)n(-c2ccccc2)c1=O` (stereo not drawn): inactive: 1.76%; for `O=C(OCCCN1CCCC1)C(O)(c1ccccc1)C1CCCCC1` (stereo not drawn): inactive: -1.55%.
Take `CP(=O)(Oc1ccccc1)N1CCOC1=O` (stereo not drawn): the inhibition is inactive: 0.57%.
With `CCc1ccc(OP(C)(=O)Nc2cccnc2)cc1` (stereo not drawn) the figure was inactive: -0.17%; with `CCN(CC)CC(O)COC(=O)C(O)(c1ccccc1)C1CCCCC1` (stereo not drawn), inactive: 1.93%; with `COc1ccc(OP(C)(=O)Nc2ccc(Br)cc2)cc1` (stereo not drawn), inactive: 0.34%.
As to `CN(C)C(=O)c1c([N+](=O)[O-])cc([N+](=O)[O-])cc1[N+](=O)[O-]`, the inhibition is inactive: 1.2%.
Regarding `CC(C)(C)c1ccc(OP(C)(=O)O)cc1`, the inhibition is inactive: 0.76%.
Regarding `COc1ccccc1OP(C)(=O)Nc1ccccc1Br` (stereo not drawn), the inhibition is inactive: -1.54%.
With `CP(=O)(Nc1ccc(Cl)cc1)Oc1ccc(F)cc1` (stereo not drawn) the figure was inactive: 1.12%.
With `COc1ccc(OP(C)(=O)Nc2ccccn2)cc1` (stereo not drawn), the inhibition was inactive: 1.43%.
With `CN(C)CCOC(=O)C(O)(c1ccccc1)C1CCCC1` (stereo not drawn) the figure was inactive: 0.26%.
On to `COc1ccccc1OP(C)(=O)Nc1ccc(Br)cc1` (stereo not drawn), for which the inhibition is inactive: -0.17%.
For the compound `CP(=O)(Nc1ccccn1)Oc1ccccc1` (stereo not drawn), the inhibition was inactive: -0.68%.
With `COc1ccccc1OP(C)(=O)Nc1ccc(C)cc1C` (stereo not drawn) the figure was inactive: 1.72%; with `CCc1ccc(OP(C)(=O)O)cc1`, inactive: 0.81%.
As to `O=[N+]([O-])c1cc([N+](=O)[O-])c(Nc2ccccn2)c([N+](=O)[O-])c1`, the inhibition was inactive: 0.17%.
In the case of `Cc1c(NP(C)(=O)Oc2ccc(C(C)C)cc2)c(=O)n(-c2ccccc2)n1C` (stereo not drawn), the inhibition is inactive: 2.31%.
The same measure for `COc1ccccc1OP(C)(=O)Nc1ccc(C)c(C)c1` (stereo not drawn): inactive: 0%; for `COc1ccc(OP(C)(=O)Nc2ccccc2Br)cc1` (stereo not drawn): inactive: 0.26%.
The same measure for `Cc1cc(C)cc(OP(C)(=O)Nc2cccc(C(F)(F)F)c2)c1` (stereo not drawn): inactive: 1.99%; for `CP(=O)(OCCOc1ccccc1)OCCOc1ccccc1`: inactive: -0.76%; for `CP(=O)(Nc1ccc(Cl)cc1Cl)Oc1ccccc1` (stereo not drawn): inactive: -0.6%.
The same measure for `Cc1nc2ccc3ccccc3c2o1.O=[N+]([O-])c1cc([N+](=O)[O-])c(O)c([N+](=O)[O-])c1`: inactive: 0.4%; for `O=[N+]([O-])c1ccc2c(c1)C=Nc1ccccc1O2`: inactive: -0.33%.
Take `CC(C)(C)c1ccc(OP(C)(=O)Nc2ccc(SC(F)(F)F)cc2)cc1` (stereo not drawn): the inhibition was inactive: 0.95%.
The same measure for `Cc1cccc(C)c1OP(C)(N)=O` (stereo not drawn): inactive: 1.03%; for `O=[N+]([O-])c1cc([N+](=O)[O-])c(Nc2cccnc2)c([N+](=O)[O-])c1`: inactive: 3.73%; for `Cc1cc(C)cc(OP(C)(N)=O)c1` (stereo not drawn): inactive: 0.08%.
With `COc1ccccc1OP(C)(=O)Nc1cc(Cl)ccc1C` (stereo not drawn) the figure was inactive: 1.03%; with `COc1ccc(OP(C)(=O)Nc2cccc(F)c2)cc1` (stereo not drawn), inactive: 1.82%; with `COc1ccccc1OP(C)(=O)Nc1ccc(C)cc1` (stereo not drawn), inactive: -4.65%.
As to `Cc1ccc(NP(C)(=O)Oc2ccccc2)c(C)c1` (stereo not drawn), the inhibition was inactive: 0.85%.
With `CCOC(=O)c1ccc(NP(C)(=O)Oc2ccccc2)cc1` (stereo not drawn) the figure was inactive: 1.95%; with `CCN(CC)CCCOC(=O)C(O)(c1ccccc1)c1ccccc1`, inactive: 0.82%.
With `CCc1ccc(OP(C)(=O)N2CCN(c3ccc([N+](=O)[O-])cc3)CC2)cc1` (stereo not drawn), the inhibition is inactive: -1.2%.
As for `CP(=O)(NC(=O)Nc1ccccc1)Oc1ccccc1` (stereo not drawn), the inhibition is inactive: 0.94%.
On to `Cc1cc(C)cc(OP(C)(=O)Nc2ccc(SC(F)(F)F)cc2)c1` (stereo not drawn), for which the inhibition is inactive: 0.34%.
On to `Cc1cccc(C)c1OP(C)(=O)Nc1ccc(SC(F)(F)F)cc1` (stereo not drawn), for which the inhibition was inactive: 3.69%.
The same measure for `CP(=O)(Nc1ccc(SC(F)(F)F)cc1)Oc1ccc(Cl)cc1` (stereo not drawn): inactive: 0.65%; for `CP(=O)(Oc1ccccc1)OC(c1ccccc1)C(F)(F)F` (stereo not drawn): inactive: -0.73%.
For `CP(=O)(Nc1ccccn1)Oc1ccc(Cl)cc1` (stereo not drawn), the inhibition is inactive: 1.34%.
Consider `CCOC(=O)c1ccc(NP(C)(=O)Oc2ccc(OC)cc2)cc1` (stereo not drawn), for which the inhibition is inactive: 1.79%.
With `O=[N+]([O-])c1cc([N+](=O)[O-])c(O)c([N+](=O)[O-])c1.c1ccc(Oc2ccncc2)cc1` the figure was inactive: 0%; with `CCOP(C)(=S)SCC(=O)NC(C)C(=O)O` (stereo not drawn), inactive: 1.38%.
In the case of `CP(=O)(Nc1ccccc1Br)Oc1ccccc1` (stereo not drawn), the inhibition was inactive: -0.09%.
As to `COc1ccccc1OP(C)(=O)Nc1ccccc1` (stereo not drawn), the inhibition is inactive: -2.45%.
The same measure for `CP(=S)(Nn1cnnc1)Oc1ccccc1` (stereo not drawn): inactive: 0.16%; for `O=[N+]([O-])c1cc([N+](=O)[O-])c(Nc2nnnn2CCO)c([N+](=O)[O-])c1`: inactive: 1.24%; for `CC1=C2N=C(C=C3N=C(C(C)=C4[N-][C@@](C)([C@@H]5N=C1[C@](C)(CCC(=O)NC[C@@H](C)OP(=O)([O-])O[C@H]1[C@@H](O)[C@@H](n6cnc7cc(C)c(C)cc76)O[C@@H]1CO)[C@H]5CC(N)=O)[C@@](C)(CC(N)=O)[C@@H]4CCC(N)=O)[C@@](C)(CC(N)=O)[C@@H]3CCC(N)=O)C(C)(C)[C@@H]2CCC(N)=O.[C-]#N.[Co+3]`: inactive: -2.7%.
Consider `CCOC(=O)C(CC)C1=NC(C)(C)Cc2ccccc21.O=[N+]([O-])c1cc([N+](=O)[O-])c(O)c([N+](=O)[O-])c1` (stereo not drawn), for which the inhibition was inactive: -1.45%.
With `CP(=O)(Nc1ccc(SC(F)(F)F)cc1)Oc1ccccc1` (stereo not drawn) the figure was inactive: 0.81%; with `CCCOc1ccc(NP(C)(=O)Oc2ccc(Cl)cc2)cc1` (stereo not drawn), inactive: 3.96%.
On to `COc1ccccc1OP(C)(=O)Nc1c(C)cccc1C` (stereo not drawn), for which the inhibition was inactive: 3.4%.
As for `CN1CCCCC1COC(=O)C1(O)c2ccccc2CCc2ccccc21` (stereo not drawn), the inhibition was inactive: 1.29%.
`O=[N+]([O-])c1cc([N+](=O)[O-])c(-n2nnc3ccccc32)c([N+](=O)[O-])c1`: the inhibition was inactive: -0.66%.
The same measure for `Cc1nc2ccc3ccccc3c2s1.O=[N+]([O-])c1cc([N+](=O)[O-])c(O)c([N+](=O)[O-])c1`: inactive: -0.77%.
Turning to `O=[N+]([O-])c1cc([N+](=O)[O-])c(-c2cnn(-c3ccccc3)c2)c([N+](=O)[O-])c1`, the inhibition is inactive: 0.86%.
Regarding `CCOC(=O)c1ccc(NP(C)(=O)Oc2cc(C)cc(C)c2)cc1` (stereo not drawn), the inhibition was inactive: 0.33%.
The same measure for `Cc1cc(C)cc(OP(C)(=O)Nc2ccc(C)cc2C)c1` (stereo not drawn): inactive: -2.28%.
The same measure for `COc1ccccc1OP(C)(=O)Nc1cccc(Br)c1` (stereo not drawn): inactive: 2.47%.
Turning to `Cc1ccc(C)c(NP(C)(=O)Oc2ccccc2)c1` (stereo not drawn), the inhibition was inactive: -0.09%.
Take `CP(=O)(Nc1cccc(Br)c1)Oc1ccccc1` (stereo not drawn): the inhibition was inactive: 0.08%.
The same measure for `Cc1cc(C)cc(OP(C)(=O)Nc2ccccn2)c1` (stereo not drawn): inactive: 0.6%.
With `O=C(O)c1cccc(Nc2c([N+](=O)[O-])cc([N+](=O)[O-])cc2[N+](=O)[O-])c1` the figure was inactive: 0.43%; with `CC1=NCCc2c1[nH]c1ccccc21.O=[N+]([O-])c1cc([N+](=O)[O-])c(O)c([N+](=O)[O-])c1`, inactive: 1.06%.
